Measured data: PubChem BioAssay AID624099 (ICCB-Longwood, 2012)
Test: 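Host factors E2 relies on to silence an HPV18 LCR reporter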 (primary screen). Cells: human C33A cervical carcinoma cells (HPV-negative) stably expressing BPV1 E2 and an HPV18 LCR luciferase reporter. Knock-down reagent: siRNA pool against human genes, 40 nM. Timing: 72 h. Detection: 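Per-well luciferase luminescence, z-scored on each plate against the plate mean and SD with control wells left out, then averaged across three replicate plates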. Reading the numbers: mean z-score and z-score: higher = stronger reporter signal, weaker E2 silencing. Call rule: 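Mean z ≥ 2 together with z ≥ 2 in two or more of the three replicates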.
The deposit covers about 21,000 reagents; below is a part drawn at random. 497 of all reagents (2.4%) count as active. 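Higher z means weaker E2 silencing; only reporter increases were scored, and knock-downs that hurt cell survival may mask genuine repressor factors.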

Silencing of TUBA3D gave: mean z-score 0.49; z-score, replicate A = 0.81; z-score, replicate B = 0.44; z-score, replicate C = 0.22; inactive.
For CPSF1, the values are mean z-score -1.07; z-score, replicate A = -0.94; z-score, replicate B = -1.19; z-score, replicate C = -1.07; inactive.
After knock-down of FUT9 the results were mean z-score 0.27; z-score, replicate A = 0.79; z-score, replicate B = 0.16; z-score, replicate C = -0.15; inactive.
With knock-down of IRX3, the screen gave mean z-score 0.63; z-score, replicate A = 0.99; z-score, replicate B = 0.25; z-score, replicate C = 0.65; inactive.
Depletion of NPY2R gave: mean z-score 0.86; z-score, replicate A = 0.92; z-score, replicate B = 0.72; z-score, replicate C = 0.92; inactive.
With knock-down of HECW1, the screen gave mean z-score 1.75; z-score, replicate A = 1.67; z-score, replicate B = 1.91; z-score, replicate C = 1.67; inactive.
After knock-down of C10orf88, the screen gave mean z-score -1.62; z-score, replicate A = -1.12; z-score, replicate B = -2.01; z-score, replicate C = -1.71; inactive.
For MBD3L5, the values are mean z-score 0.05; z-score, replicate A = -0.05; z-score, replicate B = 0.25; z-score, replicate C = -0.06; inactive.
With knock-down of VNN2, the screen gave mean z-score 1.15; z-score, replicate A = 0.76; z-score, replicate B = 1.37; z-score, replicate C = 1.3; inactive.
Depletion of SCGB1D4 came out at: mean z-score 0.17; z-score, replicate A = -0.06; z-score, replicate B = 0.21; z-score, replicate C = 0.35; inactive.
After knock-down of MTF2, the screen gave mean z-score 3.39; z-score, replicate A = 3.63; z-score, replicate B = 3.24; z-score, replicate C = 3.3; active.
Silencing of HLA-DOA came out at: mean z-score -0.66; z-score, replicate A = -0.98; z-score, replicate B = -0.17; z-score, replicate C = -0.84; inactive.
Against SQSTM1, the entry reads mean z-score 1.03; z-score, replicate A = 0.74; z-score, replicate B = 0.75; z-score, replicate C = 1.6; inactive.
For RUNX3, the values are mean z-score 0.9; z-score, replicate A = 0.57; z-score, replicate B = 0.74; z-score, replicate C = 1.38; inactive.

Entries above marked active:
MTF2: mean z-score = 3.39; z-score, replicate A = 3.63; z-score, replicate B = 3.24; z-score, replicate C = 3.3; outcome = active

The results go on.
TULP2 showed mean z-score -0.75; z-score, replicate A = -0.24; z-score, replicate B = -0.87; z-score, replicate C = -1.15; inactive.
After knock-down of GPLD1, the screen gave mean z-score -0.63; z-score, replicate A = -0.61; z-score, replicate B = -0.54; z-score, replicate C = -0.75; inactive.
SLC2A11 gave mean z-score 0.03; z-score, replicate A = -0.28; z-score, replicate B = 0.09; z-score, replicate C = 0.27; inactive.
Silencing of MARCHF8 resulted in: mean z-score 1.58; z-score, replicate A = 1.39; z-score, replicate B = 1.63; z-score, replicate C = 1.72; inactive.
Against ADAMTSL2, the values are mean z-score 0.78; z-score, replicate A = 0.62; z-score, replicate B = 0.84; z-score, replicate C = 0.88; inactive.
Silencing of KAAG1 gave: mean z-score 1.46; z-score, replicate A = 1.52; z-score, replicate B = 1.22; z-score, replicate C = 1.63; inactive.
After knock-down of INPP5A, the record shows mean z-score 0.52; z-score, replicate A = 0.76; z-score, replicate B = 0.79; z-score, replicate C = 0; inactive.
